The results in this text go back to patent US7517998B2, “Non nucleoside reverse transcriptase inhibitors” (priority 2004, dated 2009).

Read-outs that look alike come from different tables or passages of the source.

The assay addresses K103NNY181C mutant reverse transcriptase (Human immunodeficiency virus type 1 group M subtype B, UniProt P04585, K690N/Y768C). As to the kind of experiment: Reverse transcriptase enzymatic assay (PicoGreen), K103N/Y181C mutant RT. The note with it: read-out: IC50 mut, enzymatic assay of Example 24. It counts as biochemical, HIV-1.
Setting [1] is: K103N/Y181C mutant reverse transcriptase.

A word on the IC50: it is the midpoint of a concentration-inhibition curve.

For `CC(C)(C#Cc1ccc(NC(=O)CSc2nnnn2-c2ccc(C3CC3)cc2Cl)c(Cl)c1F)OCCO[n+]1cccc([O-])c1`, the half-maximal inhibitory concentration (IC50) under setting [1] was 41 nM. With `Cc1ccc(-c2c(SCC(=O)Nc3ccc(-c4ccc(CC(=O)O)cc4)cc3Cl)cnn2C)c(Cl)c1`, under “mutant reverse transcriptase”, the 50% inhibitory concentration (IC50) amounted to 178 nM. Consider `CC(C)(C#Cc1ccc(NC(=O)CSc2nnnn2-c2ccc(C(C)(C)C)cc2Cl)c(Cl)c1)OCC(=O)N1CCC(C(=O)O)CC1`, for which the half-inhibitory concentration (IC50) under setting [1] came out at 26 nM.
